The entries are a selection whose mix differs from that of the whole data set. The source made the active and inactive calls. Cut-off read from the data, not from the text of the source: active = inhibition above about 38%; inactive = the rest.

By UniProt entry, the sequences of proteins in these tests, tags left out.
UniProt P9WHR9, whole entry: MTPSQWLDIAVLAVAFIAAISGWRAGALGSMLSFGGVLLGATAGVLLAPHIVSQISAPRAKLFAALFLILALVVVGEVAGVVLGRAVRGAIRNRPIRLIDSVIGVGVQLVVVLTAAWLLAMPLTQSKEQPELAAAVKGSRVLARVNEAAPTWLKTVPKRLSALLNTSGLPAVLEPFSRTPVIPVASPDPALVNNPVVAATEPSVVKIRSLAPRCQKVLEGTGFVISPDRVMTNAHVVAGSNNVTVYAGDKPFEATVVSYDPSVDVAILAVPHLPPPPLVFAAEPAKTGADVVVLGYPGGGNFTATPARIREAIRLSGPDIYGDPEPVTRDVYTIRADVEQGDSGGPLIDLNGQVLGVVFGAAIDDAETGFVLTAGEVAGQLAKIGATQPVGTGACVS

In this assay the target is Serine protease Rv3671c (Mycobacterium tuberculosis (strain ATCC 25618 / H37Rv)) (UniProt P9WHR9). Description: Rv3671c serine protease inhibitors, primary screen, biochemical, fluorescence polarization, M. tuberculosis H37Rv (AID 2606).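 Note: extracellular domain of Rv3671c used as enzyme; 0% = enzyme with DMSO and 100% = no enzyme.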 The note with it: at 5.96 µM; hits give high values. (Fluorescence polarisation rises when a labelled molecule tumbles more slowly, as on binding a larger partner.)
Usually inhibition stands for the relative decrease from the control value, in per cent. On to `O=[N+]([O-])c1cc([N+](=O)[O-])c(-c2cnn(-c3ccccc3)c2)c([N+](=O)[O-])c1`, for which the inhibition was inactive: 6.69%.
With `Cc1nc2ccc3ccccc3c2s1.O=[N+]([O-])c1cc([N+](=O)[O-])c(O)c([N+](=O)[O-])c1` the figure was inactive: -0.05%; with `O=[N+]([O-])c1cc([N+](=O)[O-])c(-n2nnc3ccccc32)c([N+](=O)[O-])c1`, inactive: 7.09%; with `COc1ccccc1OP(C)(=O)Nc1c(C)cccc1C` (stereo unspecified), inactive: 1.46%.
In the case of `CN1CCCCC1COC(=O)C1(O)c2ccccc2CCc2ccccc21` (stereo unspecified) it was inactive: -6.67%; in that of `CP(=O)(Nc1ccc(SC(F)(F)F)cc1)Oc1ccccc1` (stereo unspecified), inactive: -6.83%; in that of `CCCOc1ccc(NP(C)(=O)Oc2ccc(Cl)cc2)cc1` (stereo unspecified), inactive: -0.31%.
In the case of `O=[N+]([O-])c1cc([N+](=O)[O-])c(Nc2nnnn2CCO)c([N+](=O)[O-])c1` it was inactive: -1.6%; in that of `CC1=C2N=C(C=C3N=C(C(C)=C4[N-][C@@](C)([C@@H]5N=C1[C@](C)(CCC(=O)NC[C@@H](C)OP(=O)([O-])O[C@H]1[C@@H](O)[C@@H](n6cnc7cc(C)c(C)cc76)O[C@@H]1CO)[C@H]5CC(N)=O)[C@@](C)(CC(N)=O)[C@@H]4CCC(N)=O)[C@@](C)(CC(N)=O)[C@@H]3CCC(N)=O)C(C)(C)[C@@H]2CCC(N)=O.[C-]#N.[Co+3]`, inactive: -81.8%; in that of `CCOC(=O)C(CC)C1=NC(C)(C)Cc2ccccc21.O=[N+]([O-])c1cc([N+](=O)[O-])c(O)c([N+](=O)[O-])c1` (stereo unspecified), inactive: 8.31%.
`CC1=NCCc2c1[nH]c1ccccc21.O=[N+]([O-])c1cc([N+](=O)[O-])c(O)c([N+](=O)[O-])c1`: the inhibition was inactive: 4.28%.
With `O=C(O)c1cccc(Nc2c([N+](=O)[O-])cc([N+](=O)[O-])cc2[N+](=O)[O-])c1` the figure was inactive: 10.3%.
Take `CP(=O)(Nc1cccc(Br)c1)Oc1ccccc1` (stereo unspecified): the inhibition is inactive: 2.18%.
With `Cc1cc(C)cc(OP(C)(=O)Nc2ccccn2)c1` (stereo unspecified), the inhibition is inactive: 1.16%.
In the case of `Cc1ccc(C)c(NP(C)(=O)Oc2ccccc2)c1` (stereo unspecified) it was inactive: -5.4%; in that of `COc1ccccc1OP(C)(=O)Nc1cccc(Br)c1` (stereo unspecified), inactive: 2.22%.
In the case of `Cc1cc(C)cc(OP(C)(=O)Nc2ccc(C)cc2C)c1` (stereo unspecified) it was inactive: 6.49%; in that of `CCOC(=O)c1ccc(NP(C)(=O)Oc2cc(C)cc(C)c2)cc1` (stereo unspecified), inactive: -6.69%.
With `CCN(CC)CCCOC(=O)C(O)(c1ccccc1)c1ccccc1` the figure was inactive: -3.35%.
In the case of `CCOC(=O)c1ccc(NP(C)(=O)Oc2ccccc2)cc1` (stereo unspecified), the inhibition is inactive: 0.13%.
With `COc1ccccc1OP(C)(=O)Nc1ccc(C)cc1` (stereo unspecified) the figure was inactive: -4.76%; with `Cc1ccc(NP(C)(=O)Oc2ccccc2)c(C)c1` (stereo unspecified), inactive: 0.3%.
In the case of `COc1ccccc1OP(C)(=O)Nc1cc(Cl)ccc1C` (stereo unspecified) it was inactive: 0.15%; in that of `COc1ccc(OP(C)(=O)Nc2cccc(F)c2)cc1` (stereo unspecified), inactive: -2.6%.
`Cc1cc(C)cc(OP(C)(N)=O)c1` (stereo unspecified): the inhibition was inactive: 8.8%.
In the case of `O=[N+]([O-])c1cc([N+](=O)[O-])c(Nc2cccnc2)c([N+](=O)[O-])c1` it was inactive: 4.96%; in that of `CC(C)(C)c1ccc(OP(C)(=O)Nc2ccc(SC(F)(F)F)cc2)cc1` (stereo unspecified), inactive: -3.45%; in that of `Cc1cccc(C)c1OP(C)(N)=O` (stereo unspecified), inactive: 4.81%.
As to `O=[N+]([O-])c1ccc2c(c1)C=Nc1ccccc1O2`, the inhibition is inactive: 3.29%.
In the case of `CP(=S)(Nn1cnnc1)Oc1ccccc1` (stereo unspecified) it was inactive: -3.99%.
In the case of `COc1ccccc1OP(C)(=O)Nc1ccccc1` (stereo unspecified) it was inactive: -5.91%; in that of `CP(=O)(Nc1ccccc1Br)Oc1ccccc1` (stereo unspecified), inactive: -1.22%.
In the case of `CCOP(C)(=S)SCC(=O)NC(C)C(=O)O` (stereo unspecified) it was inactive: -4.73%; in that of `CCOC(=O)c1ccc(NP(C)(=O)Oc2ccc(OC)cc2)cc1` (stereo unspecified), inactive: -6.32%; in that of `O=[N+]([O-])c1cc([N+](=O)[O-])c(O)c([N+](=O)[O-])c1.c1ccc(Oc2ccncc2)cc1`, inactive: 5.37%.
For `CP(=O)(Nc1ccccn1)Oc1ccc(Cl)cc1` (stereo unspecified), the inhibition is inactive: -0.78%.
With `Cc1cccc(C)c1OP(C)(=O)Nc1ccc(SC(F)(F)F)cc1` (stereo unspecified) the figure was inactive: -26%; with `CP(=O)(Nc1ccc(SC(F)(F)F)cc1)Oc1ccc(Cl)cc1` (stereo unspecified), inactive: 6.39%; with `CP(=O)(Oc1ccccc1)OC(c1ccccc1)C(F)(F)F` (stereo unspecified), inactive: 7.68%.
For the compound `CCc1ccc(OP(C)(=O)N2CCN(c3ccc([N+](=O)[O-])cc3)CC2)cc1` (stereo unspecified), the inhibition was inactive: 1.82%.
In the case of `CP(=O)(NC(=O)Nc1ccccc1)Oc1ccccc1` (stereo unspecified) it was inactive: -7.71%; in that of `Cc1cc(C)cc(OP(C)(=O)Nc2ccc(SC(F)(F)F)cc2)c1` (stereo unspecified), inactive: -6.88%; in that of `CP(=O)(Nc1ccc(Cl)cc1)Oc1ccc(F)cc1` (stereo unspecified), inactive: 6.98%.
In the case of `CC(C)(C)c1ccc(OP(C)(=O)O)cc1` it was inactive: -0.08%; in that of `COc1ccccc1OP(C)(=O)Nc1ccccc1Br` (stereo unspecified), inactive: -1.53%.
With `CN(C)C(=O)c1c([N+](=O)[O-])cc([N+](=O)[O-])cc1[N+](=O)[O-]` the figure was inactive: -22.5%; with `CCN(CC)CC(O)COC(=O)C(O)(c1ccccc1)C1CCCCC1` (stereo unspecified), inactive: -0.95%; with `COc1ccc(OP(C)(=O)Nc2ccc(Br)cc2)cc1` (stereo unspecified), inactive: 2.69%.
`CP(=O)(Oc1ccccc1)N1CCOC1=O` (stereo unspecified): the inhibition was inactive: 5.32%.
`CCc1ccc(OP(C)(=O)Nc2cccnc2)cc1` (stereo unspecified): the inhibition is inactive: 3.52%.
With `COc1ccccc1OP(C)(=O)Nc1c(C)n(C)n(-c2ccccc2)c1=O` (stereo unspecified), the inhibition was inactive: -3.62%.
`O=C(OCCCN1CCCC1)C(O)(c1ccccc1)C1CCCCC1` (stereo unspecified): the inhibition was inactive: 2.81%.
With `Nc1ccc2c(ccc3cccnc32)n1.O=[N+]([O-])c1cc([N+](=O)[O-])c(O)c([N+](=O)[O-])c1` the figure was inactive: 2.38%.
In the case of `CP(=O)(OC12CC3CC(CC(C3)C1)C2)OC12CC3CC(CC(C3)C1)C2` it was inactive: 2.76%; in that of `CCOC(=O)c1ccc(NP(C)(=O)Oc2ccc(Cl)cc2)cc1` (stereo unspecified), inactive: -1.59%.
Regarding `Cc1nc2ccc3ccccc3c2o1.O=[N+]([O-])c1cc([N+](=O)[O-])c(O)c([N+](=O)[O-])c1`, the inhibition is inactive: -16.4%.

Values taken from PubChem BioAssay AID2606 (The Scripps Research Institute Molecular Screening Center, 2010).
